According to patent publication US12350260B2 (priority 2019, dated 2025):
Values joined by “and” are separate entries in the source; they are usually repeats but may differ in a detail not shown here. Equal entries are not always repeated.

Experiments:
[1] = system: Cat-S activity in co-culture supernatant; experiment: Cathepsin S (Cat-S) activity in co-culture supernatants
[2] = system: primary human epidermal keratinocytes; conditions: 10 nM P-CTX-2 alone, 45 min after application
[3] = system: keratinocyte monocultures; experiment: P-CTX-2-induced SP release in keratinocyte monocultures (EIA); conditions: 90-min exposure to 10 nM P-CTX-2 versus MeOH 0.05%
PAR-2 [4] = experiment: Immunocytochemistry and confocal microscopy of PAR-2 internalization in human primary keratinocytes; conditions: 10 nM, 45 min at 37° C.
[5] = system: Cat-S activity in sensory neurons; experiment: Cathepsin S activity in supernatant of neurons alone; conditions: 10 nM P-CTX-2 for 90 minutes
[6] = system: Cat-S activity in keratinocytes; experiment: Cathepsin S activity in supernatant of keratinocytes alone; conditions: 10 nM P-CTX-2 for 90 minutes
[7] = system: co-cultured DRG neurons and keratinocytes
PAR-2 [8] = conditions: 10 nM P-CTX-2, 20 min
[9] = system: total cathepsin activity, including cathepsins B and L; experiment: Total cathepsin activity in co-culture supernatants (substrate Z-Phe-Arg-AMC); conditions: in presence of PbTx-1 or P-CTX-2; data not shown

How did the “catalytic activity (reaction rate) of Cat-S in the co-culture supernatant, % of vehicle control” value ([1]; 10 nM, 90-min exposure) turn out when 52-epi-54-deoxyCTX1-b was run?
The value was 148.9±21.9%.

And the “% increased Cat-S activity” value ([1]; co-culture, 10 nM P-CTX-2 for 90 minutes, methanol control = 100)?
The value was 192%.

And the Slope ([1]; co-culture, 10 nM P-CTX-2 for 90 minutes, slope defined in b141 as RFU per minute)?
Its Slope is 126.61.

What about the “average amplitude of the calcium plateau (ΔF/F0)” value [2] of the same substance?
The value was 0.87±0.1 and 0.86±0.10.

What about the “SP release from keratinocyte monocultures” value [3] of the same substance?
The value was “did not release significant amounts of SP”.

And the PAR-2 internalization (PAR-2 [4])?
The PAR-2 internalization was “could internalize PAR-2”.

What about the Slope [5] of the same substance?
Its Slope is 192.41.

What about the “% increased Cat-S activity” value ([5]; methanol control = 100) of the same substance?
Its value is 143%.

And the Slope [6]?
The Slope was 78.74.

And the “% increased Cat-S activity” value ([6]; methanol control = 100)?
Its value is 1493%.

And the “SP levels in the optimized co-culture versus the prototypical model” value ([7]; 10 nM P-CTX-2)?
Its value is 8 fold.

What about the “SP release in the co-culture versus the sensory neuron monoculture” value ([7]; 10 nM P-CTX-2, 90 min) of the same substance?
The value was 6 fold.

What about the “SP release in the co-culture relative to monocultures (normalized)” value ([7]; 10 nM P-CTX-2, 90 min, FIG. 4b) of the same substance?
The value was 598.4±223.3%.

What about the “P-CTX-2-induced SP levels released in the optimized co-culture” value ([7]; 10 nM P-CTX-2, 90 min, new co-culture model) of the same substance?
The value was 561.7 ± 97.4 pg/mL.

And the “P-CTX-2-induced SP levels released in the prototypical model (Le Garrec et al. 2016)” value ([7]; 10 nM P-CTX-2, 90 min, old co-culture model)?
The value was 67.9 ± 22.5 pg/mL.

And the “membrane expression of PAR-2” value (PAR-2 [8])?
Its value is 42.3±7.9%.

What about the “percentage of rat sensory neurons in which P-CTX-2 elicited a calcium response” value (DRG neurons; 10 nM P-CTX-2, 871 of 1720 analyzed cells) of the same substance?
The value was 50.6±4.3% and 50.6%.

What about the “DRG neurons responding with a second peak that displayed a plateau” value (DRG neurons; 10 nM P-CTX-2 alone) of the same substance?
Its value is 67.8%.

And the “DRG neurons responding with the first peak that displayed the second peak” value (DRG neurons; 10 nM P-CTX-2 alone)?
Its value is 83.2%.

What about the “average amplitude of the second peak (ΔF/F0)” value (DRG neurons; 10 nM P-CTX-2 alone) of the same substance?
Its value is 0.75±0.06.

What about the “average amplitude value of the plateau (ΔF/F0)” value (DRG neurons; 10 nM P-CTX-2 alone) of the same substance?
Its value is 0.45±0.03.

And the “percentage of the studied population displaying the plateau” value (DRG neurons; 10 nM P-CTX-2 alone)?
Its value is 28.5±3.4%.

And the “percentage of the studied population displaying the second peak” value (DRG neurons; 10 nM P-CTX-2 alone)?
The value was 42.1±4.7%.

And the “average amplitude of the P-CTX-2-elicited first peak (ΔF/F0)” value (DRG neurons; 10 nM P-CTX-2 alone, responding cells)?
The value was 1.00±0.08.

What about the global cathepsin activity [9] of the same substance?
The global cathepsin activity was “not modified”.
